Tested on: guinea pig-adapted PIC (Pichinde virus)
Experiment: Pilot studies of SCV-07 in PIC-infected guinea pigs (Examples 1 and 2)

N[C@H](CCC(=O)N[C@@H](Cc1c[nH]c2ccccc12)C(=O)O)C(=O)O [SCV-07, γ-D-glutamyl-L-tryptophan] was tested. Which “Survival curve vs control animals (group 0), Kaplan-Meier log-rank p” value (Group 2: 1 μg/kg i.p. once on the same day as infection) did it give?
The value was 0.77.

What about the “Average percent weight gain by PIC-infected guinea pigs 10-11 dpi, Mean ± Std Dev” value (Group 2: 1 μg/kg i.p. once on the same day as infection, 100 pfu PIC i.p.) of the same compound?
Its value is −3.75 ± 12.48%.

And the Mortality vs controls (Group 6: 100 μg/kg i.p. on each of the first five days after infection)?
The Mortality vs controls was “Mortality was decreased”.

What about the Mortality vs controls (Groups 1-3: 1 μg/kg i.p. before, on the day of or the day after infection, trend, not significant) of the same compound?
The Mortality vs controls was “decreased mortality”.

Reference: patent US20090143313A1 (priority 2004, published 2009)
